This is a selection; strong and weak results do not stand in their true shares. Calls of active or inactive are those of the source.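 Rule for the calls: active = inhibition above the campaign mean inhibition over all tested compounds plus 3 SD (cut at about 28% in these data); inactive = the rest.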
test system: M18 aspartyl aminopeptidase (Plasmodium falciparum 3D7); test: PfM18AAP inhibitors, malaria aminopeptidase, primary screen, biochemical, QFRET, recombinant enzyme (AID 1822); conditions: H-Glu-NHMec fluorogenic cleavage, at 7.35 µM, stronger effect = higher value;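 note: 0% = plate median of test compound wells and 100% = 2 mM ZnCl2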

| SMILES | inhibition |
| --- | --- |
| CP(=O)(Nc1ccc(Cl)cc1Cl)Oc1ccccc1 (stereo unspecified) | inactive: 5.06% |

From PubChem BioAssay AID1822 (The Scripps Research Institute Molecular Screening Center, 2009)
